A mixed list of measured activities; the numbers were collected in NIAID ChemDB.

All rows: target-level tests; agent: HIV-1; protein: Protease; endpoint: IC50

An empty or dashed field is not shown. ICn: concentration for n% inhibition. Neighbouring rows are from separate reports. a–b is a range or a potency band.

structure,method,value
COc1ccc2c(O)c(Oc3ccc(Cl)cc3)c(=O)oc2c1,-,8 µM
CC(C)C[C@H](NC(=O)C[C@H](O)[C@H](CC(C)C)NC(=O)[C@@H](NC(=O)c1ccc2ccccc2n1)C(C)C)C(=O)N[C@@H](Cc1ccccc1)C(N)=O,-,3.65 µM
NC(=O)c1cc2c([nH]c3ccccc32)c(-c2ccc(CO)o2)n1,fluorescence,35.74 µM
CC(C)CN(C[C@@H](O)[C@H](Cc1ccc(-c2ccncc2)cc1)NC(=O)O[C@H]1CCOC1)S(=O)(=O)c1ccc(N)cc1,-,0.00048 µM
O=C(NC(CO)NC(=O)[C@H](Cc1ccccc1)NC(=O)OCc1ccccc1)OCc1ccccc1,substrate cleavage,4.6 µM
Cc1c(OCc2ccccc2)ccc2c(O)c(Oc3ccc4ccc(=O)oc4c3)c(=O)oc12,-,7.5 µM
COc1ccc(S(=O)(=O)N(CC(C)C)C[C@@H](O)[C@H](Cc2ccc(-c3ccc(OC)c(C)c3)cc2)NC(=O)O[C@H]2CCOC2)cc1,-,0.0112 µM
COc1ccc(-c2c(O)c3ccc(OC)cc3oc2=O)cc1,-,3.5 µM
CC(=O)N[C@@H](Cc1c[nH]c2ccccc12)C(=O)N[C@H](C(=O)N[C@@H](CC(C)C)[C@@H](O)CC(=O)N[C@@H](CC(C)C)C(=O)N[C@@H](Cc1ccccc1)C(N)=O)C(C)C,-,0.013 µM
CC(=O)N(CCC(O)[C@H](Cc1ccccc1)NC(=O)OC(C)(C)C)[C@@H](Cc1ccccc1)C(=O)NC(C)(C)C,-,0.5 µM
N#CC[C@H](NC(=O)Oc1ccc2ccccc2n1)C(=O)N[C@@H](Cc1ccccc1)[C@@H]1O[C@@H]1[C@H](Cc1ccccc1)NC(=O)[C@H](CC#N)NC(=O)Oc1ccc2ccccc2n1,fluorescence,4.2 µg/mL
Cc1c(O)cccc1C(=O)N[C@@H](Cc1ccccc1)[C@H](O)CCN[C@H](C(=O)NC(C)(C)C)c1ccccc1,-,1.8 µM
CC(CC(N)=O)NC(=O)[C@@H]1CSCN1C(=O)[C@@H](O)[C@H](Cc1ccccc1)NC(=O)[C@H](CS(C)(=O)=O)NC(=O)COc1cccc2ccccc12,-,<0.05 µM
O=C(N[C@@H](CC1CCCCC1)C(=O)NC(CO)NC(=O)[C@H](CC1CCCCC1)NC(=O)OCC1c2ccccc2-c2ccccc21)OCC1c2ccccc2-c2ccccc21,substrate cleavage,0.55 µM
COc1ccc2c(O)c(Oc3ccc4ccc(=O)oc4c3)c(=O)oc2c1,-,4 µM
CC(=O)N1CCC[C@H]1C(=O)N[C@H](C(=O)N[C@@H](CC(C)C)[C@@H](O)CC(=O)N[C@@H](CC(C)C)C(=O)N[C@@H](Cc1ccccc1)C(N)=O)C(C)C,-,1.062 µM
C=CCC1(CC=C)C(O)C(CC=C)(CC=C)[C@@H]2COC[C@H]21,-,70–100 µM
CCn1ccc2cc(-c3ccc(C[C@H](NC(=O)O[C@H]4CCOC4)[C@H](O)CN(CC(C)C)S(=O)(=O)c4ccc(N)cc4)cc3)cnc21,-,0.00151 µM
OC1C(Cc2ccccc2)(Cc2ccccc2)[C@@H]2COC[C@H]2C1(Cc1ccccc1)Cc1ccccc1,-,70–100 µM
Cn1c2c(O)cccc2c(=O)c2c(O)cc3c(c21)C=CC(C)(C)O3,HPLC,93.1 µM
Cc1ccc(S(=O)(=O)N(C)CC[C@@H](O)[C@H](Cc2ccccc2)NC(=O)c2cccc(O)c2C)cc1,-,1.3 µM
CC[C@@H](C)[C@H](NC(=O)[C@@H]1CCCN1C(=O)[C@@H](O)[C@H](Cc1ccccc1)NC(=O)[C@H](CC(N)=O)NC(=O)c1ccc2ccccc2n1)C(=O)N[C@H](C(N)=O)C(C)C,-,<5 µM
CC(C)[C@H](NC(=O)N(C)CCc1ccccn1)C(=O)N[C@@H](Cc1ccccc1)[C@@H]1O[C@@H]1[C@H](Cc1ccccc1)NC(=O)[C@@H](NC(=O)N(C)CCc1ccccn1)C(C)C,fluorescence,>1000 µg/mL
CC(C)CNC(=O)[C@H](Cc1ccccc1)NC(=O)[C@H](O)[C@H](Cc1ccccc1)NC(=O)[C@@H](NC(=O)OCc1ccccc1)C(C)C,-,>5 µM
CC(C)CN(C[C@@H](O)[C@H](Cc1ccc(-c2cccnc2)cc1)NC(=O)O[C@H]1CCOC1)S(=O)(=O)c1ccc(N)cc1,-,0.00043 µM
CCC(=O)N(CC[C@@H](O)[C@H](Cc1ccccc1)NC(=O)c1cccc(O)c1C)[C@@H](Cc1ccccc1)C(=O)NC(C)(C)C,-,0.38 µM
COc1ccc(S(=O)(=O)N(CC(C)C)C[C@@H](O)[C@H](Cc2ccc(I)cc2)NC(=O)O[C@H]2CCOC2)cc1,-,0.00192 µM
CC(=O)N[C@@H](Cc1cccc2ccccc12)C(=O)N[C@@H](Cc1cnc[nH]1)C(=O)N[C@@H](CC(C)C)[C@@H](O)CC(=O)N[C@@H](CC(C)C)C(=O)N[C@@H](Cc1ccccc1)C(N)=O,-,7.2 µM
CC(=O)N(CC[C@@H](O)[C@H](Cc1ccccc1)NC(=O)c1cccc(O)c1C)[C@@H](Cc1ccccc1)C(=O)NCc1cccc(C)c1,-,1.1 µM
CC[C@H](C)[C@H](NC(=O)[C@@H]1CCCN1C(=O)[C@H](O)[C@H](Cc1ccccc1)NC(=O)[C@H](CO)NC(=O)CCc1ccccc1)C(=O)N[C@H](C(N)=O)C(C)C,-,<5 µM
COc1ccc2c(O)c(-c3ccccc3)c(=O)oc2c1,-,11 µM
O=C(NC(CO)NC(=O)[C@H](CC1CCCCC1)NC(=O)OCC1c2ccccc2-c2ccccc21)OCC1c2ccccc2-c2ccccc21,substrate cleavage,>5 µM
CC(C)CNC(=O)[C@@H](NC(=O)[C@H](Cc1ccccc1)NC(=O)[C@H](O)[C@H](Cc1ccccc1)NC(=O)[C@@H](NC(=O)OCc1ccccc1)C(C)C)C(C)C,-,>5 µM
CC(=O)N(CC[C@@H](O)[C@H](Cc1ccccc1)NC(=O)c1cccc(O)c1C)[C@@H](Cc1ccccc1)C(=O)NCc1ccc(C)cc1,-,1.6 µM
CC(C)(C)NC(=O)[C@@H]1CCCN1C(=O)C(O)[C@H](Cc1ccccc1)NC(=O)OCc1ccccc1,substrate cleavage,>10 µM
CC(C)[C@H](NC(=O)OCc1ccccn1)C(=O)N[C@@H](CCc1ccccc1)[C@@H]1O[C@@H]1[C@H](CCc1ccccc1)NC(=O)[C@@H](NC(=O)OCc1ccccn1)C(C)C,fluorescence,>1000 µg/mL
CSC[C@H](NC(=O)COc1cccc2cccnc12)C(=O)N[C@@H](Cc1ccccc1)[C@H](O)C(=O)N1CSC(C)(C)[C@H]1C(=O)NC(C)(C)C,-,<0.05 µM
C=CCC1(CC=C)C(=O)C(CC=C)(CC=C)[C@@H]2COC[C@H]21,-,70–100 µM

A second listing of 2 rows from above:

structure | method | value
O=C(NC(CO)NC(=O)[C@H](Cc1ccccc1)NC(=O)OCc1ccccc1)OCc1ccccc1 | substrate cleavage | 4.6 µM
COc1ccc2c(O)c(Oc3ccc4ccc(=O)oc4c3)c(=O)oc2c1 | - | 4 µM